Results of unrelated studies side by side (data: NIAID ChemDB).

All rows: growth or infection tests; agent: HIV-2

Two numbers with a dash give a range or band. Neighbouring rows are from separate reports. An empty or dashed field is not shown. ECn: concentration that inhibits the pathogen or its effect by n%.

smiles | setting | method | measure | strain or isolate | cell line | result
CC1(C)[C@@H](O[C@H]2O[C@H](C(=O)O)[C@@H](O)[C@H](O)[C@H]2O[C@@H]2O[C@H](C(=O)O)[C@@H](O)[C@H](O)[C@H]2O)CC[C@]2(C)[C@H]3C(=O)C=C4[C@@H]5C[C@@](C)(C(=O)O)CC[C@]5(C)CC[C@@]4(C)[C@]3(C)CC[C@@H]12 | - | ELISA | EC50 | rot | MT-4 | <1000 µg/mL
O=[N+]([O-])c1ccccc1S(=O)(=O)c1ccccc1 | - | cytopathic effect / XTT | EC50 | ROD | CEM + CEM-SS | >250 µM
CCCCCCCCCCCCCCCOP(=O)(OCc1ccc(OC(=O)CCCC)cc1)OP(=O)(O)OP(=O)(O)OC[C@@H]1C=C[C@H](n2cc(C)c(=O)[nH]c2=O)O1 | - | - | EC50 | - | CEM/TK- | 0.39 µM
N[C@@H](CCC(=O)Nc1ccc(B(O)O)cc1)C(=O)O | - | syncytia | EC50 | ROD | CEM | >50 µM
c1cc2cc(NCCCNC3=NCCN3)ccc2[nH]1 | - | MTT | EC50 | ROD | MT-4 | >166 µM
C#Cc1ccc(Nc2nccc(Oc3c(C)cc(-c4cn(-c5ccc(C(=O)OC)cc5)nn4)cc3C)n2)cc1 | - | MTT | EC50 | ROD | MT-4 | >242 µM
Cc1ccnc2c1NC(=O)c1cccnc1N2C1CC1 | - | cytopathic effect / XTT | EC50 | ROD | CEM + CEM-SS | >38 µM
C#Cc1ccc(Nc2nccc(Oc3c(C)cc(-c4cn(Cc5ccccc5)nn4)cc3C)n2)cc1 | - | MTT | EC50 | ROD | MT-4 | >8.55 µM
C=CCNc1ncnc2c1ncn2CCOCP(=O)(O)O | - | cytopathic effect / MTT | EC50 | ROD | CEM | 5 µg/mL
O=c1[nH]cnc2c1ncn2[C@H]1CC[C@@H](CO)O1 | - | MTT | EC50 | ROD | MT-4 | 82.1 µM
Cc1ccnc2c1NC(=O)c1cccnc1N2C1CC1 | - | cytopathic effect / XTT | EC50 | ROD | CEM + CEM-SS | >38 µM
Nc1nc(Nc2cccc3ccccc23)c2ncn(CCOCP(=O)(O)O)c2n1 | - | cytopathic effect / MTT | EC50 | ROD | MT-4 | 68.5 µg/mL
CN=C(N)NCCCNc1ccc2[nH]ccc2c1 | - | MTT | EC50 | ROD | MT-4 | >144 µM
O=Cc1ccccc1B(O)O | - | syncytia | EC50 | ROD | CEM | ≥50 µM
CC(=O)OC(OC(C)=O)c1cc(C)c2c(c1)COP(=O)(OC[C@@H]1C=C[C@H](n3cc(C)c(=O)[nH]c3=O)O1)O2 | - | - | EC50 | - | CEM | 0.57 µM
COc1ccccc1C(=O)N1CCC(NC(=O)c2cc(O)c(O)c(O)c2)CC1 | - | MTT | EC50 | ROD | MT-4 | >147.2 µM
O=C1N(Cc2ccc(CO)cc2)[C@H](Cc2ccccc2)[C@H](O)[C@@H](O)[C@@H](Cc2ccccc2)N1Cc1ccc(CO)cc1 | - | virus yield | EC50 | ROD | MT-2 | <0.05 µM
Cc1cn([C@H]2C[C@H](N=[N+]=[N-])[C@@H](CO)O2)c(=O)[nH]c1=O | - | MTT | EC50 | ROD | MT-4 | 0.0071 µM
CCNC(N)=NCCCNc1ccc2[nH]ccc2c1 | - | MTT | EC50 | ROD | MT-4 | >52.67 µM
Cn1c(=O)cc(Oc2nc(Nc3ccc(C#N)cc3)nc(Nc3nc4ccc(F)cc4s3)n2)c2ccccc21 | - | MTT | EC50 | ROD | - | >2.26 µg/mL
Cc1ccnc2c1NC(=O)c1cccnc1N2C1CC1 | - | MTT | EC50 | ROD | MT-4 | >15.02 µM
Cc1ccnc2c1NC(=O)c1cccnc1N2C1CC1 | - | trypan blue | EC50 | ROD | MT-4 | >50 µM
Nc1nc(N)c(Cc2c(N)nc(N)nc2OCCOCP(=O)(O)O)c(OCCOCP(=O)(O)O)n1 | - | syncytia | EC50 | ROD | CEM | 50 µM
Cc1occc1C(=S)Nc1ccc(Cl)c(/C=N/OC(C)(C)C)c1 | - | cytopathic effect / XTT | EC50 | ROD | CEM + CEM-SS | >20 µM
C#Cc1ccc(Nc2nccc(Oc3c(C)cc(-c4cn(Cc5cccc([N+](=O)[O-])c5)nn4)cc3C)n2)cc1 | - | MTT | EC50 | ROD | MT-4 | ≥101 µM
CCc1nc2sccn2c1C(=O)c1ccco1 | - | RT activity | EC50 | ROD | PBMC | >100 µM
CC(=O)OCOC(=O)CCc1ccc2c(c1)COP(=O)(OC[C@@H]1C=C[C@H](n3cc(C)c(=O)[nH]c3=O)O1)O2 | - | syncytia | EC50 | LAV-2 | CEM + CEM TK- | 25 µM
OB(O)c1ccc(Cl)cc1 | - | syncytia | EC50 | ROD | CEM | >50 µM
Cc1cn([C@H]2C[C@H](F)[C@@H](CO)O2)c(=O)[nH]c1=O | - | ELISA | EC50 | 1814 | PBMC | 0.004 µM
CCc1nc2ccccn2c1C(=O)c1ccco1 | - | RT activity | EC50 | 194 | PBMC | >100 µM
OB(O)c1ccc(F)cc1 | - | syncytia | EC50 | ROD | CEM | >250 µM
CNC(C)[C@H]1O[C@H](O[C@@H]2[C@@H](O)[C@H](O[C@@H]3OC[C@@](C)(O)[C@@H](NC)[C@@H]3O)[C@@H](NC(=O)[C@@H](N)CCCN=C(N)N)C[C@H]2NC(=O)[C@@H](N)CCCN=C(N)N)[C@H](NC(=O)[C@@H](N)CCCN=C(N)N)[C@@H](O)[C@@H]1O | - | syncytia | EC50 | CLADE C | MT-2 | 4.5 µM
Cc1ccnc2c1NC(=O)c1cccnc1N2C1CC1 | 3 d | β-galactosidase | EC50 | ROD | MAGI + MAGI-CCR5 | >1000 µM
Nc1ccn([C@H]2CC[C@@H](CO)O2)c(=O)n1 | - | MTT | EC50 | ROD | MT-4 | 0.49 µg/mL
Nc1nc(NC2CC2)c2ncn(C3CC=C[C@H]3CO)c2n1 | - | - | EC50 | ROD | CEM | >100 µM
C#Cc1ccc(Nc2nccc(Oc3c(C)cc(-c4cn(-c5cccc(C(=O)OC)c5)nn4)cc3C)n2)cc1 | - | MTT | EC50 | ROD | MT-4 | 137 µM
CC[C@@]1(O)C(=O)OCc2c1cc1n(c2=O)Cc2cc3cc(O)ccc3nc2-1 | - | syncytia | EC50 | ROD | C8166 | 0.025 µg/mL
CCOCn1c(Sc2cc(C)cc(C)c2)c(CC)c(=O)[nH]c1=O | - | cytopathic effect / MTT | EC50 | EHO | MT-4 | >100 µM
CCN(CC)c1ncnc2c1ncn2CCOCP(=O)(O)O | - | cytopathic effect / MTT | EC50 | ROD | CEM | >4 µg/mL
Cc1cn([C@H]2C[C@H](N=[N+]=[N-])[C@@H](CO)O2)c(=O)[nH]c1=O | - | cytopathic effect / XTT | EC50 | CBL-20 | CEM + CEM-SS | <0.01 µM
Cc1cn([C@H]2C[C@H](N=[N+]=[N-])[C@@H](CO)O2)c(=O)[nH]c1=O | - | cytopathic effect / XTT | EC50 | ROD | CEM + CEM-SS | 0.005 µM
O=C(NC1CCN(S(=O)(=O)c2ccccc2)CC1)c1cc(O)c(O)c(O)c1 | - | MTT | EC50 | ROD | MT-4 | >127.8 µM
c1cc2cc(NCCNC3=NCCN3)ccc2[nH]1 | - | MTT | EC50 | ROD | MT-4 | >88.57 µM
C/C=C/CSc1cc(NC(=S)c2ccsc2C)ccc1Cl | - | cytopathic effect / XTT | EC50 | ROD | CEM + CEM-SS | >20 µM
Cc1cn([C@H]2C=C[C@@H](COP3(=O)OCc4cccc(CCC(=O)OCc5ccccc5)c4O3)O2)c(=O)[nH]c1=O | - | syncytia | EC50 | LAV-2 | CEM + CEM/O | 1 µM
CCOCn1c(Cc2cc(C)cc(C)c2)c(CC)c(=O)[nH]c1=O | - | cytopathic effect / MTT | EC50 | EHO | MT-4 | >249 µM
CC(C)=CCN1Cc2cccc3[nH]c(=S)n(c23)C[C@@H]1C | - | trypan blue | EC50 | ROD | MT-4 | >50 µM
O=C(O)CCc1ccc(B(O)O)cc1 | - | syncytia | EC50 | ROD | CEM | >250 µM
Cn1c(=O)cc(Oc2nc(Nc3ccc(C#N)cc3)nc(Nc3nc4ccc(Cl)cc4s3)n2)c2ccccc21 | - | MTT | EC50 | ROD | - | >2.19 µg/mL
Cc1cn([C@H]2C[C@H](N=[N+]=[N-])[C@@H](CO)O2)c(=O)[nH]c1=O | - | MTT | EC50 | ROD | MT-4 | 0.013 µM
CN=C1CN=C(c2ccc[nH]2)c2cc(Cl)ccc2N1 | - | antigen | EC90 | UC-1 | CEM | 1–5 µM
CC(C)(C)NC(=O)[C@@H]1C[C@@H]2CCCC[C@@H]2CN1C[C@@H](O)[C@H](Cc1ccccc1)NC(=O)[C@H](CC(N)=O)NC(=O)c1ccc2ccccc2n1 | - | RT activity | EC50 | ROD | CEM + CEM-SS | 0.002 µM
CCOCn1c(Sc2cc(C)cc(C)c2)c(CC)c(=O)[nH]c1=S | - | cytopathic effect / MTT | EC50 | ROD | MT-4 | >100 µM
CCc1nc2ccccn2c1C(=O)c1cccs1 | - | RT activity | EC50 | ROD | PBMC | >100 µM
Cc1cccc2c1OP(=O)(OC[C@@H]1C=C[C@H](n3cc(C)c(=O)[nH]c3=O)O1)OC2 | - | - | EC50 | - | CEM | 0.05 µM
Nc1nc2c(ncn2C2C=C[C@@H](CO)C2)c(=O)[nH]1 | - | - | EC50 | ROD | CEM | 3 µM
Cc1c(N)nc(N)nc1OCCOCP(=O)(O)O | - | syncytia | EC50 | ROD | CEM | 0.23 µM
CC(=O)N1CCC(NC(=O)c2cc(O)c(O)c(O)c2)CC1 | - | MTT | EC50 | ROD | MT-4 | >42.6 µM
Cc1cn([C@H]2C=C[C@@H](COP3(=O)OCc4cc(C(C)(C)C)cc(C(C)(C)C)c4O3)O2)c(=O)[nH]c1=O | - | - | EC50 | - | CEM | 2 µM
Cc1cn([C@H]2C[C@H](N=[N+]=[N-])[C@@H](CO)O2)c(=O)[nH]c1=O | 5 d | cytopathic effect / MTT | EC50 | ROD | MT-4 | 0.087 µM
CCSC[C@H]1O[C@@H](n2cc(C)c(=O)[nH]c2=O)C[C@@H]1N=[N+]=[N-] | - | - | EC50 | ROD | MT-4 | 0.93 µg/mL
COC(=O)c1ccc(C(=O)N2CCC(NC(=O)c3cc(O)c(O)c(O)c3)CC2)cc1 | - | MTT | EC50 | ROD | MT-4 | >26.9 µM
Nc1nc(NC2CC2)c2ncn(C3C=C[C@@H](CO)C3)c2n1 | - | - | EC50 | ROD | CEM/TK- | 7 µM
Cc1ccnc2c1NC(=O)c1cccnc1N2C1CC1 | - | MTT | EC50 | ROD | MT-4 | >15 µM
CCNC(N)=NCCNc1ccc2[nH]ccc2c1 | - | MTT | EC50 | ROD | MT-4 | >47.28 µM
OB(O)c1ccccc1OCc1ccc(I)cc1 | - | syncytia | EC50 | ROD | CEM | >50 µM
C=C1[C@H](CO)[C@@H](O)C[C@@H]1n1cnc2c(=O)[nH]c(N)nc21 | - | MTT | EC50 | ROD | MT-4 | >4.59 µM
CC1=CC(=O)C(C)(C2=NC(C)(C)CO2)c2ccccc21 | - | cytopathic effect / XTT | EC50 | CBL-20 | CEM + CEM-SS | >1000 µM
Nc1nc(N2CCOCC2)c2ncn(CCOCP(=O)(O)O)c2n1 | - | cytopathic effect / MTT | EC50 | ROD | CEM | >20 µg/mL
N#Cc1c(N)nc(N)nc1OCCOCP(=O)(O)O | - | syncytia | EC50 | ROD | CEM | 1.3 µg/mL
CN(C)c1cccc2c(S(=O)(=O)N3CCSC3c3cccnc3)cccc12 | 5 d | cytopathic effect / MTT | EC50 | ROD | MT-4 | >2000 µM
C[C@H](Cn1cnc2c(N)ncnc21)OCP(=O)(O)O | - | syncytia | EC50 | ROD | CEM | 0.61 µg/mL
OB(O)c1ccccc1CN1CCSCC1 | - | syncytia | EC50 | ROD | CEM | >50 µM
C1CNCCNCCCNCCNC1 | - | syncytia | EC50 | GH-1 | MOLT-4 | 8.44 µM
COc1ccc(CN[C@@H](C(=O)N[C@H]2c3ccccc3C[C@H]2O)[C@H](O)[C@H](Cc2ccccc2)NC(=O)[C@@H](NC(=O)OCc2ccccc2)C(C)(C)C)cc1 | - | p24 | EC50 | EHO | MT-4 | 0.24 µM
Nc1ncnc2c1ncn2CCOCP(=O)(O)O | - | syncytia | EC50 | ROD | CEM | 1.7 µg/mL

5 of the rows above, restated:

smiles,setting,method,measure,strain or isolate,cell line,result
Nc1ncnc2c1ncn2CCOCP(=O)(O)O,-,syncytia,EC50,ROD,CEM,1.7 µg/mL
N#Cc1c(N)nc(N)nc1OCCOCP(=O)(O)O,-,syncytia,EC50,ROD,CEM,1.3 µg/mL
Cc1cn([C@H]2C[C@H](F)[C@@H](CO)O2)c(=O)[nH]c1=O,-,ELISA,EC50,1814,PBMC,0.004 µM
Cc1cn([C@H]2C[C@H](N=[N+]=[N-])[C@@H](CO)O2)c(=O)[nH]c1=O,-,cytopathic effect / XTT,EC50,ROD,CEM + CEM-SS,0.005 µM
C#Cc1ccc(Nc2nccc(Oc3c(C)cc(-c4cn(-c5ccc(C(=O)OC)cc5)nn4)cc3C)n2)cc1,-,MTT,EC50,ROD,MT-4,>242 µM